# This is a selection; strong and weak results do not stand in their true shares. Active and inactive are the calls of the source. Cut-off read from the data, not from the text of the source: active = inhibition mostly above about 28% (no sharp cut-off); inactive = mostly below about 43%.
# Assay: A qHTS for Small Molecule Inhibitors of Shiga Toxin; note: 0% is about no effect
# Details: Vero cells, Shiga toxin protein synthesis inhibition reporter; at 38.7 µM; hits give high values
row,SMILES,inhibition
1,CCOP(=O)(Nc1cccc2cccnc12)OCC,inactive: 6.68%
2,CCC(C)N(CC(C)C)C(=S)SC(NC(C)=O)C(Cl)(Cl)Cl (stereo not drawn),inactive: 23%
3,CCOC(=O)c1ccc(NC(=O)C(C)(CCl)SC)cc1 (stereo not drawn),active: 78.9%
4,O=C(OC1CN2CCC1CC2)c1cccc([N+](=O)[O-])c1 (stereo not drawn),inactive: 3.87%
5,O=C(Nc1ccncc1[N+](=O)[O-])c1ccc([N+](=O)[O-])cc1[N+](=O)[O-],inactive: -2.59%
6,O=C(COc1ccccc1)OC1CN2CCC1CC2 (stereo not drawn),inactive: -1.65%
7,COP1(=S)c2c(C)nn(CCC#N)c2N=C(c2ccc(F)cc2)N1C (stereo not drawn),inactive: -6.81%
8,O=[N+]([O-])c1ccc(Nc2ccc(Oc3ccc([N+](=O)[O-])cc3[N+](=O)[O-])cc2)c([N+](=O)[O-])c1,inactive: -6.11%
9,O=P(Nc1ccccn1)(c1cccc2ccccc12)c1cccc2ccccc12,inactive: -6.79%
10,Cc1cc(SC(NC=O)C(Cl)(Cl)Cl)ncn1 (stereo not drawn),inactive: 5.47%
11,CCOC(=O)Nc1cccc([As](=O)(O)O)c1,inactive: -5.6%
12,Cc1cc(SC(NC(=O)c2ccccc2)C(Cl)(Cl)Cl)nc(C(C)C)n1 (stereo not drawn),inactive: 10.8%
13,CCCCOc1ccc(C(=O)NCC2(N3CCCCC3)CCCCC2)cc1OC,inactive: -4.34%
14,CCOC(=O)Nc1ccc([As](=O)(O)O)c(O)c1,inactive: -20%
15,O=[N+]([O-])c1cc([N+](=O)[O-])c(-c2ccn[nH]2)s1,active: 62.6%
16,CCN(CC)C(=S)SC(NC=O)C(Cl)(Cl)Cl (stereo not drawn),inactive: -2.16%
17,CC(C)NC(=O)NP(=O)(Oc1ccccc1)Oc1ccccc1,inactive: 17%
18,CC(C)c1ccc(OP(=O)(Nc2ccccn2)Oc2ccccc2F)cc1 (stereo not drawn),inactive: 35%
19,ClCCSc1nnc(-c2cccnc2)o1,inactive: 19.9%
20,Cc1ccc2nc3c(c(C)c2c1)CC(C(Cl)Cl)S3 (stereo not drawn),inactive: 29.6%
21,Cc1ccc(OP(=O)(Nc2ccc([N+](=O)[O-])cn2)Oc2ccc(C)cc2)cc1,inactive: 1.74%
22,O=[As](O)(c1ccc(O)cc1)c1ccccc1O,inactive: 5.18%
23,C[As](=O)(O)c1cccc(C(=O)O)c1,inactive: -1.74%
24,COc1ccc(N/C(=N/P(=O)(N2CCOCC2)N2CCOCC2)N2CCOCC2)cc1,inactive: 53.2%
25,COc1cc(I)ccc1[As](=O)(O)O,inactive: 6.91%
26,COc1ccc2nc(NP(=O)(c3ccccc3)c3ccccc3)sc2c1,inactive: -3.34%

row,SMILES,inhibition
1,Cc1cc(=O)[nH]c(N[N+](=O)[O-])n1,inactive: 10.8%
2,O=C(OC1CN2CCC1CC2)C12CC3CC(CC(C3)C1)C2 (stereo not drawn),inactive: -6.19%
3,Cc1c2c(nc3ccccc13)SC(C(Cl)Cl)C2 (stereo not drawn),inactive: 38.4%
4,CCOP(=O)(Nc1cccc2ccccc12)OCC,inactive: -3%
5,COc1cc(C2NCCC3(OCCO3)C2(C)C)cc(OC)c1OC (stereo not drawn),inactive: -2.59%
6,CCCOP(=S)(Nc1nc(N)cc(=O)[nH]1)OCCC,inactive: -4.49%
7,Nc1cccc2c([As](=O)(O)O)cccc12,inactive: -7.03%
8,O=[As](O)(c1cccc(O)c1)c1cccc(O)c1,inactive: -20.5%
9,Cc1cccc(OCC(=O)OC2CN3CCC2CC3)c1 (stereo not drawn),inactive: -6.55%
10,CS(=O)(=O)c1ccc(Cl)c(NC(=O)COC(=O)C(O)(c2ccccc2)c2ccccc2)c1,inactive: -5.83%
11,COc1cc(C(=O)NCC2(N3CCOCC3)CCCCC2)cc(Cl)c1OC(C)C,inactive: -7.41%
12,O=[As](O)(O)c1cccnc1,inactive: 26.6%
13,O=C(OC1CN2CCC1CC2)c1ccc(Cl)cc1 (stereo not drawn),inactive: -10.6%
14,O=[N+]([O-])c1ccc2c(c1)nnn2O,inactive: -9.09%
15,CN(C(=O)Cc1ccccc1)[C@@H]1CC[C@]2(CCCO2)C[C@H]1N1CCCC1,inactive: 1.55%
16,CCOP1(=S)c2c(C)nn(CCC#N)c2N=C(c2ccc(F)cc2)N1C (stereo not drawn),inactive: -14.3%
17,NC(=O)Nc1ccc([As](=O)(O)O)cc1,inactive: -4.45%
18,Nc1ccccc1[As](=O)(O)c1ccccc1,inactive: 18.9%
19,O=C(O)COc1ccc([As](=O)(O)O)cc1[N+](=O)[O-],inactive: 18.3%
20,O=P(Nc1nccs1)(c1ccccc1)c1nc2ccccc2s1 (stereo not drawn),inactive: 10.4%
21,O=P(Nc1nccs1)(Oc1ccccc1)Oc1ccccc1,inactive: 41.9%
22,CCOP1(=S)c2c(C)nn(CCC#N)c2N=C(c2ccccc2F)N1C (stereo not drawn),inactive: -17.1%
23,O=P1(Nc2ccc(Br)cn2)COc2ccccc2OC1,inactive: -26.5%
24,Cc1ccc(OCC(=O)OC2CN3CCC2CC3)cc1 (stereo not drawn),inactive: -3.4%
25,O=[As](O)(c1cccs1)c1cccs1,inactive: 3.03%
26,Nc1cccc([As](=O)(O)c2ccccc2)c1,inactive: -1.85%

row,SMILES,inhibition
1,O=P1(Nc2ncccn2)COc2ccccc2OC1,inactive: -7.72%
2,O=C(/C=C/c1ccccc1)OC1CN2CCC1CC2 (stereo not drawn),inactive: 22%
3,CN(C)C1(CNC(=O)c2ccc(S(C)(=O)=O)cc2)CCCCC1,inactive: -1.29%
4,CC1CCC(C(C)C)C(OP(=O)(Nc2ccccn2)c2ccccc2)C1 (stereo not drawn),inactive: -15.6%
5,Cc1ccc(C(=O)OC2CN3CCC2CC3)cc1 (stereo not drawn),inactive: -6.05%
6,Cc1nn(-c2ccccc2)c2c1P(=O)(N1CCOCC1)N(C)C(c1ccccc1)=N2 (stereo not drawn),inactive: -5.61%
7,O=[As](O)(c1ccccc1Br)c1ccccc1Br,inactive: 14.8%
8,CC(C)/C=N\N=C(\N)N[N+](=O)[O-],inactive: -5.68%
9,CN(C(=O)Cc1ccc(Cl)c(Cl)c1)[C@@H]1CCCC[C@H]1N1CCCC1,inactive: -9%
10,CC(C)(C)C(=O)NC(Sc1ncccn1)C(Cl)(Cl)Cl (stereo not drawn),inactive: -13.5%
11,Clc1n[nH]nc1-c1nn[nH][15n]1,inactive: -50.3%
12,CCOP(=O)(Nc1ccc(C)cn1)OCC,inactive: -7.29%
13,CCOP(=O)(NC(=NC(C)c1ccccc1)NC(C)c1ccccc1)OCC (stereo not drawn),inactive: 3.41%
14,O=P1(Nc2ccccn2)COc2ccccc2OC1,inactive: -9.97%
15,CCC(C)(OOC(C)(C)C)OOC(C)(C)C,inactive: -6.33%
16,CC(C)C(=O)NC(Sc1ccccc1)C(Cl)(Cl)Cl (stereo not drawn),inactive: -11.9%
17,O=P(Nc1nccs1)(c1ccccc1)c1ccccc1,inactive: -3.33%
18,Nc1ccc([As](=O)(O)c2ccc([N+](=O)[O-])cc2)cc1,inactive: 5.89%
19,O=C(OC1CN2CCC1CC2)c1cccc(Cl)c1 (stereo not drawn),inactive: -19.1%
20,O=[N+]([O-])c1ccc(O)c(/C=N/Nc2ccc([N+](=O)[O-])cc2[N+](=O)[O-])c1,inactive: 0.806%
21,CC(=O)NC(SC(=S)N(C)C)C(Cl)(Cl)Cl (stereo not drawn),inactive: 12.6%
22,O=[As](O)(c1ccccc1)c1ccc(O)cc1,inactive: -4.38%
23,C[C@H]1OP(=O)(Oc2ccccc2)[C@H](O)[C@H](O)[C@H]1N=[N+]=[N-] (stereo partly drawn),inactive: 21.1%
24,O=P(Nc1nc2ccccc2s1)(c1ccccc1)c1ccccc1,inactive: 24.5%
25,O=P(Nc1ccccn1)(c1ccc(Br)cc1)c1ccc(Br)cc1,inactive: 38.6%
26,CN(C)C1(CNC(=O)c2ccc(Cl)c(S(N)(=O)=O)c2)CCCCC1,inactive: -9.76%

row,SMILES,inhibition
1,CN(C)C(=O)Oc1noc2ccccc12,inactive: -2.33%
2,Cc1ccccc1OP(=O)(Nc1ccccn1)Oc1ccccc1C,inactive: -12.3%
3,CC(=O)NC(SC(=S)N(CC(C)C)CC(C)C)C(Cl)(Cl)Cl (stereo not drawn),inactive: 0%
4,Cc1ccc(OP(=O)(Nc2ccccn2)Oc2ccc(C)cc2)cc1,inactive: -10.4%
5,COC(=O)c1cc2c(s1)N=C(c1ccccc1)N(C)P2(=O)N1CCOCC1 (stereo not drawn),inactive: -2.87%
6,CCC(=O)N1C2C3N(C(=O)CC)C1C1N(C(=O)CC)C(C(N1C(=O)CC)N3C(=O)CC)N2C(=O)CC,inactive: -14.2%
7,O=C(OC1CN2CCC1CC2)c1ccccc1 (stereo not drawn),inactive: -3.52%
8,O=C(NC1CCS(=O)(=O)C1)NP(=S)(Oc1ccccc1)Oc1ccccc1 (stereo not drawn),inactive: 14.6%
9,Cc1ccc(NP(=O)(Oc2cccc(C)c2)Oc2cccc(C)c2)nc1,inactive: -7.74%
10,CCOC(=O)NC(Sc1ccccc1)C(Cl)(Cl)Cl (stereo not drawn),inactive: 8.64%
11,c1ccc(-c2nn[nH]n2)c(-c2nn[nH]n2)c1,inactive: -8.74%
12,CC(=O)Nc1ccc(Oc2c([N+](=O)[O-])cc([N+](=O)[O-])cc2[N+](=O)[O-])cc1,inactive: -18%
13,CC(=O)Nc1ccc([As](=O)(O)O)c(O)c1,inactive: 14.3%
14,CC(=O)c1ccc(N2CC2c2ccncc2)cc1 (stereo not drawn),inactive: 15.5%
15,C[C@@H]1C=CCP(=O)(Oc2ccccc2)O1 (stereo partly drawn),inactive: -1.74%
16,C[C@H]1OP(=O)(Oc2ccccc2)C[C@@H]2O[C@@H]21 (stereo partly drawn),inactive: 18.6%
17,CC(C)(C)C(=O)NC(Sc1ccccc1)C(Cl)(Cl)Cl (stereo not drawn),inactive: -6.03%
18,CCOc1ccc(C2=NCC(CBr)S2)cc1 (stereo not drawn),inactive: -4.81%
19,O=P1(Nc2nc3ccc(Cl)cc3s2)COc2ccccc2O1 (stereo not drawn),inactive: 29.3%
20,CC(C)CC(=O)NC(Sc1ccc(Cl)cc1)C(Cl)(Cl)Cl (stereo not drawn),inactive: -16.3%
21,Cc1c2non([O-])c-2c(C)[n+](=O)[n+]1[O-],inactive: 35.7%
22,O=C(NC(Sc1ccncn1)C(Cl)(Cl)Cl)c1ccccc1 (stereo not drawn),inactive: -10.7%
23,Oc1ccccc1CNc1ccccn1,inactive: 67.3%
24,Cc1ccc(OP(=O)(Nc2nccs2)Oc2ccc(C)cc2)cc1,inactive: -1.44%
25,COc1ccccc1OP(=O)(Nc1ccc(C)cn1)Oc1ccccc1OC,inactive: 3.3%

# Reference: PubChem BioAssay AID2315 (National Center for Advancing Translational Sciences (NCATS), 2010)
